Compound potency records, mixed from different reports. Data source: NIAID ChemDB in PubChem.

All rows: growth or infection tests; species: Mycobacterium tuberculosis

Lines come from different laboratories, so protocols vary. Inhibition is in % at the dose shown (toxicity tests: loss of growth or viability). MIC50, MIC90 and the like: level of inhibition, or share of isolates inhibited. An empty or dashed field is not shown. ECn: concentration that inhibits the pathogen or its effect by n%. MIC bound comes from a single tested concentration.

SMILES	strain	read by	endpoint	dose	result
CCOC(=O)Nc1cc(NC/C(=C\O)CN(C)c2ccccc2)c([N+](=O)[O-])c(N)n1	H37Rv		inhibition	12.5 µg/mL	30%
CO[C@@H]1[C@@H](OC(=O)c2ccc(C)[nH]2)[C@@H](O)C(Oc2ccc3c(O)c(NC(=O)c4c[nH]c(C(=O)Nc5c(O)c6ccc(OC7OC(C)(C)[C@H](OC)[C@@H](OC(=O)c8ccc(C)[nH]8)[C@H]7O)c(C)c6oc5=O)c4C)c(=O)oc3c2C)OC1(C)C	H37Rv	BACTEC	MIC bound		≤12.8 µg/mL
CC(C)N=c1cc2n(-c3ccc(Cl)cc3)c3ccccc3nc-2cc1Nc1ccc(Cl)cc1	MDR24	broth dilution / resazurin	MIC		0.25 µg/mL
CC(C)=CCC/C(C)=C/CNCCNCCc1ccccc1Cl			MIC		50 µM
COC(=O)c1ccc(/C=C/c2ccc(Br)cc2)cc1	H37Rv		MIC		>100 µg/mL
O=C(NO)c1cnccn1	H37Rv	BACTEC	MIC bound		>12.5 µg/mL
C[C@H]1C[C@H](N)CN1c1cc2c(cc1F)c(=O)c(C(=O)O)cn2-c1ccc(F)cc1F	MDR		MIC90		>8 µg/mL
CCN(CC)Cc1cc(NC(C)=O)ccc1O	H37Rv		MIC		>100 µg/mL
CC(C)[C@@]1(NC(=O)[C@@H]2C=C3c4cccc5[nH]cc(c45)C[C@H]3N(C)C2)O[C@@]2(O)[C@@H]3CCCN3C(=O)[C@H](Cc3ccccc3)N2C1=O	H37Rv	BACTEC	MIC bound		>12.8 µg/mL
COc1cc(NC(C)=O)c2c(oc3ccccc32)c1OC	H37Rv		MIC		100 µg/mL
Fc1ccc(CCNCCNC(c2ccccc2)c2ccccc2)cc1			MIC		50 µM
NC(=O)c1cc(Br)ccc1O	H37Rv		MIC		>100 µg/mL
COc1ccc(C(=O)/C=C/c2cccnc2)cc1			inhibition	12.5 µg/mL	0%
CCCCNC(=O)Oc1ccc(C2=Nc3c(cc(NC(=O)OCC)nc3N)N[C@@H]2C)cc1	H37Rv		EC50		>12.5 µg/mL
Brc1cccc2c1sc1ccccc12	H37Rv		MIC		25 µg/mL
CCCCC(CC)CN1CN(CC(CC)CCCC)CC(C)(NCCNC2CCCC2)C1			MIC		25 µM
O=C(/C=C(/NCc1ccccc1)c1ccccc1)c1ccccc1	H37Rv		MIC		>100 µg/mL
CC(C)c1[nH]nc(C(N)=O)c1N=NN(C)C	H37Rv	BACTEC	MIC bound		>12.5 µg/mL
Nc1cccc(C(=O)O)c1Cl	H37Rv		MIC		>100 µg/mL
COC(=O)c1ccc(C(=O)OC)c2nn3c(N)nnc3nc12	H37Rv	resazurin	MIC bound		>6.25 µg/mL
CCOC(=O)Nc1cc(NN)c([N+](=O)[O-])c(NC(=O)OCC)n1	H37Rv		EC50		>12.5 µg/mL
CC(C)=CCC(OC(=O)C=C(C)C)c1cc(O)c2c(c1O)C(=O)C=CC2=O	H37Rv	BACTEC	MIC bound		>12.8 µg/mL
C[C@H]1COc2c(N3CCN(C)CC3)c(F)cc3c(=O)c(C(=O)O)cn1c23	ATCC 35823		MBC		0.5 µg/mL
Cl.NCCC(Br)(Br)CC(=O)O	H37Rv		MIC		>100 µg/mL
CO[C@H]1/C=C/O[C@@]2(C)Oc3c(C)c(O)c4c(O)c(c5c(c4c3C2=O)NC2(CCN(CC(C)C)CC2)N=5)=NC(=O)/C(C)=C\C=C\[C@H](C)[C@H](O)[C@@H](C)[C@@H](O)[C@@H](C)[C@H](OC(C)=O)[C@@H]1C	33 (rifampin-resistant)		MIC		0.05 µg/mL
c1ccc2c(c1)Sc1ccccc1N2Cc1cnc[nH]1	H37Rv	BACTEC	MIC bound		>12.5 µg/mL
CCCCC(CC)CN1CN(CC(CC)CCCC)CC(C)(NCCNCCc2ccccc2Cl)C1			MIC		12.5 µM
O=C(O)C(C(=O)O)C(=O)c1ccccc1	H37Rv		MIC		>100 µg/mL
CCCOCC1(c2ccccc2)C(N)=NC(=O)N1C	H37Rv	BACTEC	inhibition	12.5 µg/mL	3%
CC1CCCC(NCCNCC23CC4CC(CC(C4)C2)C3)C1C			MIC		9.4 µM
C/C=C(\C)C(=O)N[C@@H](c1ccccc1)[C@@H](O)C(=O)OC1C[C@@]2(O)[C@@H](OC(=O)c3ccccc3)[C@@H]3[C@]4(OC(C)=O)CO[C@@H]4C[C@H](O)[C@@]3(C)C(=O)[C@H](OC(C)=O)C(=C1C)C2(C)C	H37Rv	BACTEC	MIC bound		>12.5 µg/mL
COc1ccc(OC)c(CCNCCNCc2ccccc2Sc2ccccc2CO)c1			MIC		50 µM
NC(=O)c1ccco1	H37Rv		MIC		>100 µg/mL
NS(=O)(=O)c1ccc(N2C(=O)C(=O)N(c3ccccc3)C2=S)cc1	H37Rv	BACTEC	MIC bound		>12.5 µg/mL
CO[C@H]1/C=C/O[C@@]2(C)Oc3c(C)c(O)c4c(O)c(c(/C=N/N5CCN(C)CC5)c(O)c4c3C2=O)NC(=O)/C(C)=C\C=C\[C@H](C)[C@H](O)[C@@H](C)[C@@H](O)[C@@H](C)[C@H](OC(C)=O)[C@@H]1C	TN565		MIC		>32 µg/mL
CCCCC(CC)CN1CN(CC(CC)CCCC)CC(C)(NCCNCCc2ccccc2F)C1			MIC		25 µM
CN[C@@H]1[C@H](O[C@H]2[C@H](O[C@H]3[C@H](O)[C@@H](O)[C@H](N=C(N)N)[C@@H](O)[C@@H]3N=C(N)N)O[C@@H](C)[C@]2(O)C=O)O[C@@H](CO)[C@H](O)[C@H]1O	TN933 (CB)		MIC		>2 µg/mL
CC(C)c1ccc2c(c1)CC[C@H]1[C@](C)(CNCCN[C@H]3C[C@@H]3c3ccccc3)CCC[C@]21C			MIC		50 µM
CCc1cc(-n2c3c(CC)c(=O)c(CC)cc-3nc3ccccc32)cc(CC)c1O	H37Rv	BACTEC	inhibition	12.5 µg/mL	-43%
CO[C@H]1/C=C/O[C@@]2(C)Oc3c(C)c(O)c4c(=O)c(c5oc6cc(N7CCN(CC(C)C)CC7)cc(=O)c6nc5c4c3=C2O)NC(=O)/C(C)=C\C=C\[C@H](C)[C@H](O)[C@@H](C)[C@@H](O)[C@@H](C)[C@H](OC(C)=O)[C@@H]1C	2219 (rifampin-resistant)		MBC		0.2 µg/mL
COc1ccc(C2CC(=O)c3c(OC)cc(OC)c(I)c3O2)cc1			EC50		>12.5 µg/mL
COc1ccc2oc3ccc(OC)cc3c2c1	H37Rv		MIC		>100 µg/mL
COc1ccc(OC)c(Cc2cnc3nc(N)nc(N)c3c2C)c1	H37Rv	resazurin	MIC		3.13 µg/mL
CCOC(=O)Nc1cc2nc(-c3ccccc3)c(-c3ccccc3)nc2c(OCC)n1	H37Rv		EC50		<12.5 µg/mL
CC1(C)[C@H]2CC[C@@H](CNCCNCCc3ccccc3F)[C@@H]1C2			MIC		50 µM
O=C(/C=C/c1cccc(I)c1)c1ccccc1O			EC50		<12.5 µg/mL
O=C(Nc1ccccc1)c1cc(S(=O)(=O)N2CCNC2=O)c(S)cc1Cl	H37Rv	resazurin	inhibition	6.25 µg/mL	-31%
O=C(O)c1cccs1	H37Rv		MIC		>100 µg/mL
CCOC(=O)Nc1cc(NC(C)CCCN(CC)CC)c2ncc(-c3ccc(C(F)(F)F)cc3)nc2n1	H37Rv		EC50		<12.5 µg/mL
NC1CCN(c2nc3c(cc2F)c(=O)c(C(=O)O)cn3-c2ccc(F)cc2F)C1	ATCC 35830		MIC		4 µg/mL
COc1ccc2[nH]cc(CCNCCNCC(C)c3ccccc3)c2c1			MIC		50 µM
NC1=CNC(=O)C1	H37Rv	BACTEC	MIC bound		>12.5 µg/mL
CC(=O)Nc1ccc(C)cc1	H37Rv		MIC		100 µg/mL
COc1ccccc1CCNCCNC(C)C12CC3CC(CC(C3)C1)C2			MIC		50 µM
NC(N)=NCC(=O)O	H37Rv		MIC		>100 µg/mL
CCCCC(CC)CN1CN(CC(CC)CCCC)CC(C)(NCCN[C@@H](COC)[C@@H](O)c2ccccc2)C1			MIC		25 µM
Cn1cccc1/C=N/N1CC(=O)N(c2ccccc2)CC1=O	H37Rv	BACTEC	inhibition	6.25 µg/mL	33%
CC1(C)CN=C(c2cccc(N)c2)O1	H37Rv		MIC		>100 µg/mL
CCCCCCCCCCCNCCN[C@H](CO)Cc1ccccc1			MIC		25 µM
CC1CN(c2cc3c(cc2F)c(=O)c(C(=O)O)cn3-c2ccc(F)cc2F)CCN1	ATCC 35827		MIC		0.5 µg/mL
Cc1cc(=O)[nH]o1	H37Rv	BACTEC	MIC		≥12.5 µg/mL
O=C(C(=O)c1ccc(O)cc1)c1ccc(O)cc1	H37Rv		MIC		100 µg/mL
CC1(C)[C@H]2CC[C@@H](CNCCNCCc3ccc(Cl)cc3Cl)[C@@H]1C2			MIC		25 µM
O=C(O)c1ccccc1I	H37Rv		MIC		50 µg/mL
O=C1c2ccccc2OC(c2cccc(Br)c2)C1O			EC50		<12.5 µg/mL
CSC(=S)N/N=C(/C)c1ccco1	PAS-R		MIC		0.4 µg/mL
COc1ccc([C@@H]2CC(=O)c3c(OC)cc(OC)c([C@H]4C(=O)c5c(OC)cc(OC)cc5O[C@@H]4c4ccc(OC)cc4)c3O2)cc1			EC50		<12.5 µg/mL
CCCCC(CC)CN1CN(CC(CC)CCCC)CC(C)(NCCN[C@H](CO)Cc2ccc(Cl)cc2)C1			MIC		12.5 µM
CCOC(=O)Nc1cc(NCc2ccc(S(N)(=O)=O)cc2)c2ncc(C)nc2n1	H37Rv		EC50		>12.5 µg/mL
C[C@@H]1CC[C@@H]([C@@H](C)[C@H]2[C@@H](O)C[C@H]3[C@@H]4CC[C@H]5C[C@@H](O)CC[C@]5(C)[C@H]4CC[C@]23C)NC1	H37Rv	BACTEC	MIC		≥128 µg/mL
C/C(=C/c1c(Br)cc(Br)c(N)c1Br)C(=O)O	H37Rv		MIC		>100 µg/mL
Cc1cc(=O)c(C(=O)O)c(C)n1-c1ccccc1	H37Rv	BACTEC	inhibition	12.5 µg/mL	-15%
CCNc1ccc(C(=C2C=CC(=[NH+]CC)C(C)=C2)c2ccc(NCC)cc2)cc1.[Cl-]	H37Rv		MIC		25 µg/mL
NC(N)=NS(=O)(=O)c1ccc(NC(=O)c2cccn3c(=O)c4ccccc4nc23)cc1	H37Rv	resazurin	inhibition	6.25 µg/mL	21%
O=C(O)CCC(NC(=O)c1ccc([N+](=O)[O-])cc1O)C(=O)O	H37Rv		MIC		>100 µg/mL
CCOc1cc(O)c(C(=O)/C=C/c2ccccc2)c(OCC)c1	H37Rv		inhibition	12.5 µg/mL	0%

A second listing of 4 rows from above:

SMILES	strain	read by	endpoint	dose	result
O=C(NO)c1cnccn1	H37Rv	BACTEC	MIC bound		>12.5 µg/mL
CCCCC(CC)CN1CN(CC(CC)CCCC)CC(C)(NCCNCCc2ccccc2F)C1			MIC		25 µM
CCOC(=O)Nc1cc2nc(-c3ccccc3)c(-c3ccccc3)nc2c(OCC)n1	H37Rv		EC50		<12.5 µg/mL
COc1ccc(C2CC(=O)c3c(OC)cc(OC)c(I)c3O2)cc1			EC50		>12.5 µg/mL